Measured values from several laboratories, pooled; numbers as filed in NIAID ChemDB.

Common to all: whole-cell or culture tests; species: Varicella zoster virus; cell line: HEL; measure: EC50

ECn: concentration that inhibits the pathogen or its effect by n%. An empty or dashed field is not shown. Conditions beyond the fields shown may differ between rows.

Nc1nc(N)c2ncn(CCOCP(=O)(O)O)c2n1 ; strain: Oka CF1603-resistant ; method: cytopathic effect ; value: 2.3 µM
Cc1cc([C@@H]2C[C@H](O)[C@@H](CO)O2)c(F)cc1F ; strain: (TK-)/YS/R ; method: plaque count ; value: >200 µM
Nc1ncnc2c1ncn2C[C@@H](CO)OCP(=O)(O)O ; strain: Oka penciclovir-resistant/B ; method: cytopathic effect ; value: 0.017 µM
Cc1cc([C@H]2C[C@H](O)[C@@H](CO)O2)c(Cl)cc1F ; strain: TK+/YS ; method: plaque count ; value: >200 µM
Nc1nc2c(ncn2C[C@H](CO)CCO)c(=O)[nH]1 ; strain: 9/84 ; method: cytopathic effect / ELISA ; value: 13.2 µM
O=c1[nH]c(=O)n([C@@H]2O[C@H](CO)[C@@H](O)[C@@H]2O)cc1/C=C/Br ; strain: Oka CF1603-resistant ; method: cytopathic effect ; value: >57 µM
OC[C@H]1O[C@@H](c2cc(F)c(F)cc2F)C[C@@H]1O ; strain: TK+/YS ; method: plaque count ; value: >200 µM
Cc1cccn2c(C3OCCS3)cnc12 ; strain: Strain 07/1 ; value: >1000 µM
CCCc1ccc(-c2cc3cn(C4CC[C@@H](CO)O4)c(=O)nc3o2)cc1 ; strain: YS (TK+) ; method: plaque count ; value: >50 µM
Cc1ccn2c(C3SCCS3)cnc2c1 ; strain: OKA ; value: >1000 µM
Nc1nc2c(ncn2C[C@@H](CO)CCO)c(=O)[nH]1 ; strain: 9/84 + PER + ULF + BIR + Y ; method: cytopathic effect / ELISA ; value: 0.9 µM
C=C[C@@H](O)C1=C[C@@H](n2cnc3c(N)ncnc32)[C@H](O)[C@@H]1O ; strain: OKA YS ; method: cytopathic effect ; value: >50 µg/mL
OC[C@H]1O[C@H](c2cc(Br)c(F)cc2F)C[C@@H]1O ; strain: TK+/YS ; method: plaque count ; value: 149 µM
CC1(C)[C@@H](CO)CC[C@@]1(C)Cn1nnc2c(=O)[nH]cnc21 ; strain: 07/1 (TK-) ; method: cytopathic effect ; value: >50 µg/mL
Nc1cc([C@H]2C[C@H](O)[C@@H](CO)O2)c(F)cc1F ; strain: TK+/YS ; method: plaque count ; value: >200 µM
O=c1[nH]c(=O)n(C2C[C@H](CO)[C@@H](CO)C2)cc1I ; strain: OKA ; value: >100 µg/mL
Nc1nc2c(ncn2CCC(O)CO)c(=O)[nH]1 ; strain: 9/84 + PER + ULF + BIR + Y ; method: cytopathic effect / ELISA ; value: 44.5 µM
O=C(O)P(=O)(O)O ; strain: Clinical isolate VZV-23 ; method: cytopathic effect ; value: 98.5 µM
O=c1[nH]cnc2c1ncn2C1C[C@H](CO)[C@@H](CO)C1 ; strain: 07/1 (TK-) ; value: >100 µg/mL
COc1cc(F)c([C@H]2C[C@H](O)[C@@H](CO)O2)cc1[N+](=O)[O-] ; strain: (TK-)/YS/R ; method: plaque count ; value: >200 µM
CC1(C)[C@@H](CO)CC[C@@]1(C)Cn1nnc2c(Cl)ncnc21 ; strain: YS ; method: cytopathic effect ; value: >50 µg/mL
Cc1ccn2c(C3OCCO3)cnc2c1 ; strain: YS/R ; value: >1000 µM
CCCCCCCc1ccc(-c2cc3cn(C4CC[C@@H](CO)O4)c(=O)nc3o2)cc1 ; strain: OKA (TK+) ; method: plaque count ; value: 5 µM
O=c1[nH]c(=O)n([C@H]2C[C@H](O)[C@@H](CO)O2)cc1I ; strain: 9/84-A ; method: cytopathic effect / ELISA ; value: >100 µM
OC[C@H]1O[C@@H](c2cc(Br)c(F)cc2F)C[C@@H]1O ; strain: (TK+)/OKA ; method: plaque count ; value: >200 µM
O=c1[nH]c(=O)n([C@H]2C[C@H](O)[C@@H](CO)O2)cc1-c1cc(-c2ccccc2)no1 ; strain: YS ; method: plaque count ; value: 73 µg/mL
CCCCc1ccc(-c2cc3cn(C4CC[C@@H](CO)O4)c(=O)nc3o2)cc1 ; strain: YS/R (TK-) ; method: plaque count ; value: >5 µM
O=c1[nH]c(=O)n([C@@H]2C[C@H](CO)C[C@H]2CO)cc1I ; strain: 07/1 (TK-) ; value: >100 µg/mL
CC[C@H](O)C1=C[C@@H](n2cnc3c(N)ncnc32)[C@H](O)[C@@H]1O ; strain: OKA YS ; method: cytopathic effect ; value: >50 µg/mL
OC[C@H]1O[C@@H](c2cc(C(F)(F)F)c(F)cc2F)C[C@@H]1O ; strain: TK+/YS ; method: plaque count ; value: >200 µM
Nc1ncnc2c1ncn2[C@@H]1C=C(CO)[C@@H](O)[C@H]1O ; strain: OKA YS ; method: cytopathic effect ; value: 10 µg/mL
CC1(C)[C@@H](CO)CC[C@@]1(C)Cn1ccc(=O)[nH]c1=O ; strain: YS ; method: cytopathic effect ; value: >50 µg/mL
OC[C@H]1O[C@@H](c2ccc(F)cc2F)C[C@@H]1O ; strain: TK+/YS ; method: plaque count ; value: >200 µM
Cc1ccn2c(C(SCCc3ccccc3)SCCc3ccccc3)cnc2c1 ; strain: YS ; value: >1000 µM
CC1(C)[C@@H](CO)CC[C@@]1(C)Cn1cc(Br)c(=O)[nH]c1=O ; strain: OKA ; method: cytopathic effect ; value: >50 µg/mL

The last 4 rows once more:

compound	strain	method	value
CC1(C)[C@@H](CO)CC[C@@]1(C)Cn1ccc(=O)[nH]c1=O	YS	cytopathic effect	>50 µg/mL
OC[C@H]1O[C@@H](c2ccc(F)cc2F)C[C@@H]1O	TK+/YS	plaque count	>200 µM
Cc1ccn2c(C(SCCc3ccccc3)SCCc3ccccc3)cnc2c1	YS	-	>1000 µM
CC1(C)[C@@H](CO)CC[C@@]1(C)Cn1cc(Br)c(=O)[nH]c1=O	OKA	cytopathic effect	>50 µg/mL